We go through one sequence from patent US9198965B2 (priority 2008, dated 2015).

For this data set, the system named is PR/8 virus. Description: Sedimentation density profiles (density gradient ultracentrifugation) of peptide-treated virus. The arrangement: species or system A/PuertoRico/8/34 (PR/8, H1N1). To be noted: PR/8 pretreated with 30 μM EB.

For orientation: density means mass per unit of volume. Turning to RRKKAAVALLPAVLLALLAP [EB], the “location of the HA antigen (sucrose fractions)” value (1 hour at 37° C.) is reported as 41-53 % sucrose. Further, the “density at which majority of virus antigen detected” value (virus alone 1.14 g/cm^3) was 1.20 g/mL.
